PubChem BioAssay AID624099 | ICCB-Longwood – 2012

- Screen: 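Host factors E2 relies on to silence an HPV18 LCR reporter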 (primary screen)
- System: human C33A cervical carcinoma cells (HPV-negative) stably expressing BPV1 E2 and an HPV18 LCR luciferase reporter
- Knock-down reagent: siRNA pool against human genes, 40 nM
- Duration: 72 h
- Read-out: 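HPV18 LCR reporter light per well, converted to plate-wise z-scores that exclude control wells, and averaged over triplicate plates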
- Scale: mean z-score and z-score: higher = stronger reporter signal, weaker E2 silencing
- Hit rule: 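Hit if mean z-score reaches 2 and two or more of three replicate z-scores also reach 2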
This is a random part of about 21,000 reagents tested. Over the whole deposit, 497 (2.4%) were called active. 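Higher z means weaker E2 silencing; only reporter increases were scored, and knock-downs that hurt cell survival may mask genuine repressor factors.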 Reagents against one gene are numbered here.

| Gene | reagent no. | mean z-score | z-score, replicate A | z-score, replicate B | z-score, replicate C | Call |
| --- | --- | --- | --- | --- | --- | --- |
| CERS3 (ceramide synthase 3) | 1 | 0.92 | 1.07 | 1 | 0.7 | inactive |
| KCNK17 (potassium two pore domain channel subfamily K member 17) | 1 | 0.35 | 0.46 | 0.02 | 0.58 | inactive |
| SCCPDH (saccharopine dehydrogenase (putative)) | 1 | 0.85 | 0.42 | 1.05 | 1.07 | inactive |
| ADAM28 (ADAM metallopeptidase domain 28) | 1 | -1.09 | -0.6 | -1.49 | -1.18 | inactive |
| SIRT2 (sirtuin 2) | 1 | -0.14 | -0.4 | -0.12 | 0.11 | inactive |
| LOC387648 (retired record) | 1 | -0.54 | -0.69 | -0.41 | -0.53 | inactive |
| LINC00898 (long independently transcribed non-coding RNA 898) | 1 | -0.06 | -0.27 | -0.51 | 0.6 | inactive |
| FAM240C (family with sequence similarity 240 member C) | 1 | 0.2 | 0.04 | 0.26 | 0.29 | inactive |
| SSX1 (SSX family member 1) | 1 | 1.29 | 1.37 | 1.63 | 0.86 | inactive |
| LOC390680 (retired record) | 1 | -0.94 | -1.18 | -0.79 | -0.86 | inactive |
| TRAFD1 (TRAF-type zinc finger domain containing 1) | 1 | 1.6 | 1.31 | 1.85 | 1.63 | inactive |
| PRKCD (protein kinase C delta) | 1 | -1.39 | -1.38 | -1.18 | -1.62 | inactive |
| TPI1P1 (triosephosphate isomerase 1 pseudogene 1) | 1 | 0.73 | 0.89 | 0.53 | 0.76 | inactive |
| TIPE3 (TNF alpha induced protein 8 like 3) | 1 | -0.14 | 0.47 | -0.62 | -0.28 | inactive |
| ACKR1 (atypical chemokine receptor 1 (Duffy blood group)) | 1 | 0.77 | 0.83 | 0.71 | 0.76 | inactive |
| CX3CL1 (C-X3-C motif chemokine ligand 1) | 1 | 0.61 | 0.33 | 0.63 | 0.88 | inactive |
| GPR143 (G protein-coupled receptor 143) | 1 | -1.02 | -1.01 | -1.02 | -1.02 | inactive |
| PHYKPL (5-phosphohydroxy-L-lysine phospho-lyase) | 1 | -0.81 | -0.67 | -1.01 | -0.73 | inactive |
| OR8G1 (olfactory receptor family 8 subfamily G member 1) | 1 | 0.58 | 0.59 | 0.63 | 0.51 | inactive |
| MEDAG (mesenteric estrogen dependent adipogenesis) | 1 | 0.81 | 0.56 | 0.76 | 1.11 | inactive |
| PRCP (prolylcarboxypeptidase) | 1 | -0.36 | 0.12 | -0.67 | -0.53 | inactive |

6 consecutive entries already listed:
| Gene | reagent no. | mean z-score | z-score, replicate A | z-score, replicate B | z-score, replicate C | Call |
| --- | --- | --- | --- | --- | --- | --- |
| CERS3 (ceramide synthase 3) | 1 | 0.92 | 1.07 | 1 | 0.7 | inactive |
| KCNK17 (potassium two pore domain channel subfamily K member 17) | 1 | 0.35 | 0.46 | 0.02 | 0.58 | inactive |
| SCCPDH (saccharopine dehydrogenase (putative)) | 1 | 0.85 | 0.42 | 1.05 | 1.07 | inactive |
| ADAM28 (ADAM metallopeptidase domain 28) | 1 | -1.09 | -0.6 | -1.49 | -1.18 | inactive |
| SIRT2 (sirtuin 2) | 1 | -0.14 | -0.4 | -0.12 | 0.11 | inactive |
| LOC387648 (retired record) | 1 | -0.54 | -0.69 | -0.41 | -0.53 | inactive |

The results go on:
| Gene | reagent no. | mean z-score | z-score, replicate A | z-score, replicate B | z-score, replicate C | Call |
| --- | --- | --- | --- | --- | --- | --- |
| P4HA2 (prolyl 4-hydroxylase subunit alpha 2) | 1 | 0.82 | 0.5 | 0.84 | 1.11 | inactive |
| MBOAT2 (membrane bound glycerophospholipid O-acyltransferase 2) | 1 | -0.42 | -0.29 | -0.32 | -0.65 | inactive |
| ITIH4 (inter-alpha-trypsin inhibitor heavy chain 4) | 1 | -1.79 | -1.85 | -1.94 | -1.58 | inactive |
| GAPDH (glyceraldehyde-3-phosphate dehydrogenase) | 1 | 1.25 | 1.24 | 1.41 | 1.09 | inactive |
| CXCL8 (C-X-C motif chemokine ligand 8) | 1 | -1.19 | -1.67 | -1.1 | -0.79 | inactive |
| PPP1R2 (protein phosphatase 1 regulatory inhibitor subunit 2) | 1 | 0.48 | 0.48 | 0.28 | 0.68 | inactive |
| ARPP21 (cAMP regulated phosphoprotein 21) | 1 | -0.84 | -0.95 | -0.93 | -0.65 | inactive |
| ARPP21 (cAMP regulated phosphoprotein 21) | 2 | 0.39 | 0.34 | 0.29 | 0.54 | inactive |
| TMEM40 (transmembrane protein 40) | 1 | -0.97 | -1.22 | -0.93 | -0.76 | inactive |
| R3HDM1 (R3H domain containing 1) | 1 | 0.47 | 0.35 | 0.3 | 0.77 | inactive |
| OR9H1 | 1 | -0.32 | -0.03 | -0.28 | -0.66 | inactive |
| FEM1B (fem-1 homolog B) | 1 | -0.14 | -0.36 | -0.06 | -0.01 | inactive |
| MTLN (mitoregulin) | 1 | 0.41 | 0.38 | 0.3 | 0.55 | inactive |
| LYRM1 (LYR motif containing 1) | 1 | -0.78 | -1.05 | -0.72 | -0.57 | inactive |
| FOXD4L1 (forkhead box D4 like 1) | 1 | 0.31 | 0.34 | 0.22 | 0.37 | inactive |
| OR1L6 (olfactory receptor family 1 subfamily L member 6) | 1 | -0.02 | 0.21 | 0.21 | -0.47 | inactive |
| CPO (carboxypeptidase O) | 1 | -0.49 | -0.56 | -0.68 | -0.21 | inactive |
| FRS3 (fibroblast growth factor receptor substrate 3) | 1 | 0.14 | 0.21 | 0.2 | 0.02 | inactive |
| SEC62 (SEC62 preprotein translocation factor) | 1 | 2.75 | 2.68 | 3.11 | 2.45 | active |
| MCAT | 1 | -0.06 | -0.15 | 0.07 | -0.11 | inactive |
| OGFOD2 | 1 | 0.9 | 0.84 | 0.83 | 1.03 | inactive |
| COPS8 (COP9 signalosome subunit 8) | 1 | 0.53 | 0.3 | 0.36 | 0.92 | inactive |
| LOC388291 (retired record) | 1 | 0.52 | 0.68 | 0.02 | 0.85 | inactive |
| GNPTG (N-acetylglucosamine-1-phosphate transferase subunit gamma) | 1 | 0.72 | 1.1 | 0.37 | 0.68 | inactive |
| SRSF2P1 (SRSF2 pseudogene 1) | 1 | -0.9 | -0.68 | -0.97 | -1.03 | inactive |
| BGLAP (bone gamma-carboxyglutamate protein) | 1 | -0.32 | -0.04 | -0.62 | -0.29 | inactive |
| UBE2Z (ubiquitin conjugating enzyme E2 Z) | 1 | -2.79 | -2.95 | -2.69 | -2.73 | inactive |
| KAAG1 (kidney associated DCDC2 antisense RNA 1) | 1 | 1.46 | 1.52 | 1.22 | 1.63 | inactive |
| ADAMTS8 (ADAM metallopeptidase with thrombospondin type 1 motif 8) | 1 | 0.47 | 0.97 | 0.12 | 0.33 | inactive |
| ILKAP (ILK associated serine/threonine phosphatase) | 1 | 0.51 | 0.38 | 0.21 | 0.93 | inactive |
| GPR85 (G protein-coupled receptor 85) | 1 | 0.51 | 0.76 | 0.52 | 0.23 | inactive |
| LOC387894 (retired record) | 1 | 0.13 | 0.01 | 0.43 | -0.05 | inactive |
| CNMD (chondromodulin) | 1 | 0.24 | 0.26 | 0.29 | 0.16 | inactive |
| RPUSD2 (RNA pseudouridine synthase domain containing 2) | 1 | -1.27 | -1.71 | -1.31 | -0.78 | inactive |
| JRK (Jrk helix-turn-helix protein) | 1 | 0.12 | 0.33 | -0.1 | 0.12 | inactive |
| PGAM1 (phosphoglycerate mutase 1) | 1 | -0.67 | -0.91 | -0.83 | -0.26 | inactive |
| PGAM1 (phosphoglycerate mutase 1) | 2 | -0.84 | -0.55 | -0.95 | -1.02 | inactive |
